Reference: PubChem BioAssay AID1259414 (Drosophila RNAi Screening Center, 2018)
The screen tested about 24,000 reagents; this is an unselected part of those with a known target gene and a result. In the full data, about 1,210 (5%) were called active. 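Inactive calls also include excluded dsRNAs with several or no targets, genes unexpressed in JW18, and well A1, regardless of score.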 Unmarked entries are inactive. The numbers tell different reagents against one gene apart. A plus sign joins genes that one reagent is predicted to hit.

Screen: 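Fly genes that alter Wolbachia amount inside host cells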 (primary screen)
Cells: Drosophila JW18 cells infected with Wolbachia
Reagent: long dsRNA against Drosophila genes, 0.25 µg dsRNA per well of a 384-well plate
Time to read-out: 5 days
Conditions: cells persistently infected with Wolbachia before knock-down; no added drug
Read-out: 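Automated imaging of bacterial rRNA staining divided by host cell count, reported as plate-normalised robust z-score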
Direction: Wolbachia per cell robust z: higher = more Wolbachia per host cell than the plate typical
Hit rule: 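Active if absolute robust z reaches 1.5 in two or more of three replicates, leaving out multi- or no-target dsRNAs, genes unexpressed in JW18 and A1 wells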

The opening 4 records, to show the layout:
| gene knocked down | reagent no. | Wolbachia per cell robust z, rep 1 | Wolbachia per cell robust z, rep 2 | Wolbachia per cell robust z, rep 3 |
| --- | --- | --- | --- | --- |
| stg1 + CG11566 (retired record) | 1 | 0.972 | 0.83 | 0.823 |
| stg1 + CG11566 (retired record) | 2 | -1.32 | -1.69 | -1.11 |
| stg1 + CG11566 (retired record) | 3 | 0.624 | 0.566 | 0.418 |
| CG15535 | 1 | -0.0974 | 0.0388 | -0.769 |

Results, from the start:
| gene knocked down | reagent no. | Wolbachia per cell robust z, rep 1 | Wolbachia per cell robust z, rep 2 | Wolbachia per cell robust z, rep 3 |
| --- | --- | --- | --- | --- |
| stg1 + CG11566 (retired record) | 1 | 0.972 | 0.83 | 0.823 |
| stg1 + CG11566 (retired record) | 2 | -1.32 | -1.69 | -1.11 |
| stg1 + CG11566 (retired record) | 3 | 0.624 | 0.566 | 0.418 |
| CG15535 | 1 | -0.0974 | 0.0388 | -0.769 |
| CG17636 | 1 | -0.0627 | -1.03 | -0.146 |
| CG30394 | 1 | 0.351 | -0.199 | 0.417 |
| CG30394 | 2 | -2.02 | 0.784 | 0.131 |
| CG14694 | 1 | -4.18 | 0.111 | 0.988 |
| mthl2 | 1 | -0.233 | -1.01 | 1.07 |
| mthl2 | 2 | 0.581 | 0.333 | 0.289 |
| CG8289 | 1 | -3.71 | -0.0992 | -0.53 |
| CG8289 | 2 | -1.55 | -0.913 | -1.07 |
| CG14535 | 1 | -3.91 | -0.951 | -0.246 |
| Pbp45 | 1 | 0.225 | 0.614 | -1.06 |
| Dtwd2 + Obp84a | 1 | -0.184 | -0.142 | -1.7 |
| CG13170 | 1 | -2.2 | 0.109 | 0.154 |
| CG13170 | 2 | -0.0511 | -0.831 | 0.496 |
| CG4927 | 1 | -0.889 | 0.671 | 0.437 |
| CG4927 | 2 | -0.738 | -0.0194 | -0.363 |
| CG6836 | 1 | 0.318 | -0.851 | -0.736 |
| CG6836 | 2 | -1.01 | -1.02 | -1.21 |
| CG3339 | 1 | 0.507 | 0.156 | 0.399 |
| CG3339 | 2 | -2.88 | 0.2 | 1.34 |
| EndoU + CR31292 | 1 | -1.61 (active) | 0.0862 | -2.26 |
| CG8476 | 1 | -2.99 | -0.101 | 1.27 |
| CG8476 | 2 | 1.11 | -0.062 | 0.536 |
| CG5418 | 1 | 0.223 | -0.417 | -4.45 |
| CG5418 | 2 | -0.773 | 0.094 | 0.771 |
| aay | 1 | -5.76 (active) | 0.756 | -4.45 |
| CG34227 | 1 | 0.925 | 0.00262 | -0.0947 |
| CG34227 | 2 | -1.21 | -1.86 | -0.373 |
| Nt5a | 1 | 0.173 | 0.228 | -0.345 |
| side-VII | 1 | -0.337 | 0.157 | 1.5 |
| CG2444 | 1 | -3.27 | 0.416 | 0.00294 |
